Pooled drug test results. Numbers come from NIAID ChemDB, via PubChem.

Shared fields: whole-cell or culture tests; organism: Hepatitis C virus; read by: replicon; endpoint: EC50

Lines come from different laboratories, so protocols vary. Two numbers with a dash give a range or band. An empty or dashed field is not shown. ECn: concentration that inhibits the pathogen or its effect by n%.

smiles,conditions,cell line,strain or isolate,value
COCCNc1nc(NCC(F)(F)F)c2nc(-c3ccc(F)cc3)ccc2n1,-,-,-,<0.1 µM
Cc1ccc(-n2ncc3c(Nc4ccc5[nH]ncc5c4)ncnc32)c(C)c1,-,HUH 9B,-,1–10 µM
CC1CCC(C(=O)N(c2cc(-c3ccc(NC(=O)c4ccccc4F)cc3)sc2C(=O)O)C(C)C)CC1,-,-,1b,<0.5 µM
Cc1ccc(-n2ncc3c(NCCc4c[nH]c5ccccc45)ncnc32)c(C)c1,-,HUH 9B,-,<1 µM
CC(C)(c1ccc(F)cc1)c1noc(-c2cn(Cc3ccc(C(F)(F)F)cc3)c3cc(N4CCOCC4)c(F)cc3c2=O)n1,-,-,1b,>10 µM
Cc1cnc(N2C(=O)C(c3ccc(NC(=O)[C@@H]4CCCN4C(=O)Cc4ccccc4)cc3)SC2=Nc2ccc(N3CCOCC3)cc2)cn1,-,Huh7,-,>5 µM
CN1CCN(c2cc3c(cc2F)c(=O)c(-c2noc(C(CCCC#N)c4ccccc4)n2)cn3Cc2ccc(C(F)(F)F)cc2F)CC1,-,-,1b,<2 µM
CCOc1nc(N)nc2ccc(-c3cccc(NS(C)(=O)=O)c3)nc12,-,Huh7,-,<0.3 µM
CN(C)c1cc2c(cc1F)c(=O)c(-c1noc(C(C)(C)c3ccccc3)n1)cn2Cc1ccc(F)cc1,-,-,1b,>10 µM
NS(=O)(=O)c1ccc(CCNc2ncnc3c2cnn3-c2cccc(Cl)c2)cc1,-,HUH 9B,-,1–10 µM
N#Cc1ccc2c(C3CCCCC3)c3n(c2c1)CCCc1ncccc1-3,-,Huh7,-,0.01–1 µM
NC(=O)CNc1cc2c(cc1F)c(=O)c(-c1noc(Cc3ccccc3)n1)cn2Cc1ccc(C(F)(F)F)cc1F,-,-,1b,<0.5 µM
CC(C)Nc1cnn(-c2ccc3nc(NCc4ccc(S(N)(=O)=O)cc4)nc(NCC(F)(F)F)c3n2)c1,-,-,-,<0.1 µM
COC(=O)CNc1cc2c(cc1F)c(=O)c(-c1noc(Cc3ccccc3)n1)cn2Cc1ccc(C(F)(F)F)cc1F,-,-,1b,<10 µM
CCOc1nc(NCc2ccc(S(N)(=O)=O)cc2)nc2ccc(-c3cccc(N(CCO)S(C)(=O)=O)c3)nc12,-,-,-,0.1–0.25 µM
O=C(Nc1ccc(C2SC(=Nc3cccnc3)N(Cc3cccc(F)c3)C2=O)cc1)[C@@H]1CCCN1C(=O)Cc1ccccc1,-,Huh7,-,<0.1 µM
CC1CCC(C(=O)N(c2cc(-c3ccc(NC(=O)c4cncn4C)cc3)sc2C(=O)O)C(C)C)CC1,-,-,1a,>0.5 µM
Cc1ccccc1-n1ncc2c(NCCc3ccc(S(N)(=O)=O)cc3)ncnc21,-,HUH 9B,-,1–10 µM
NC(=O)COc1ccc2c(c1)S(=O)(=O)N=C(c1c(O)c3cc(F)ccc3n(CCC3CC3)c1=O)N2,-,-,1b 7601,0.095 µM
CN(C)S(=O)(=O)NC(=O)c1ccc2c(C3CCCCC3)c3n(c2c1)CC=Cc1ncccc1-3,-,Huh7,-,1–10 µM
CCOc1nc(N)nc2c1ncn2[C@@H]1O[C@@H]2COP(=O)(OC(C)C)O[C@H]2[C@@]1(C)F,158 d,-,2a,3.07 µM
N#CC1(NC(=O)c2ccc(-c3ccc4nc(NCc5ccc(S(N)(=O)=O)cc5)nc(NCC(F)(F)F)c4n3)cc2)CC1,-,-,-,<0.1 µM
CC1CCC(C(=O)N(c2cc(-c3ccc(NC(=O)c4cnc[nH]4)cc3)sc2C(=O)O)C(C)C)CC1,-,-,1b,<0.5 µM
COCCNc1nc(NC(C)C)c2nc(-c3ccc(F)cc3)ccc2n1,-,-,-,0.25–2 µM
O=C(Nc1ccc(C2SC(=Nc3ccc(N4CCOCC4)cc3)N(Cc3ccccn3)C2=O)cc1)[C@H]1CCCN1C(=S)NCc1ccccc1,-,Huh7,-,<0.1 µM
CCOc1nc(NCc2ccc(F)cc2)nc2ccc(-c3ccc(N4CCCC4=O)cc3)nc12,-,-,-,<0.1 µM
O=C(Nc1ccc(C2SC(=Nc3cccc(F)c3)N(CCOc3ccccc3)C2=O)cc1)[C@H]1CCCN1C(=O)OCc1ccccc1,-,Huh7,-,1–5 µM
Cc1ccc(-n2ncc3c(Nc4ccc(-c5cnco5)cc4)ncnc32)c(C)c1,-,HUH 9B,-,<1 µM
C[C@@H](NC(=O)OCc1ccccc1)C(=O)Nc1ccc(C2SC(=Nc3cccc(F)c3)N(CCOc3ccccc3)C2=O)cc1,-,Huh7,-,1–5 µM
CC1CCC(C(=O)N(c2cc(-c3ccc(NC(=O)c4cnccn4)nc3)sc2C(=O)O)C(C)C)CC1,-,-,1a,<0.5 µM
CNC(=O)C1Cc2ccccc2-c2c(C3CCCCC3)c3ccc(C(=O)O)cc3n2C1,-,Huh7,-,0.01–1 µM
C[C@@H](NC(=O)OCc1ccccc1)C(=O)Nc1ccc(C2SC(=Nc3cccc(F)c3)N(CCc3ccc(F)c(F)c3F)C2=O)cc1,-,Huh7,-,1–5 µM
O=C(O)c1ccc2c(C3CCCCC3)c3n(c2c1)CC/C=C\Nc1ccccc1-3,-,Huh7,-,1–10 µM
CCn1cc(C(=O)Nc2ccc(-c3cc(N(C(=O)C4CCC(C)CC4)C(C)C)c(C(=O)O)s3)cc2)cn1,-,-,1a,>0.5 µM
CN1CCN(c2cc3c(cc2F)c(=O)c(-c2noc(C(CCCCN)c4ccccc4)n2)cn3Cc2ccc(Cl)cc2)CC1,-,-,1b,<10 µM
CCOc1nc(N)nc2ccc(-c3cccc(NS(=O)(=O)c4c(C)noc4C)c3)nc12,-,Huh7,-,0.3–1 µM
CC1CCC(C(=O)N(c2cc(-c3ccc(NC(=O)c4ccco4)nc3)sc2C(=O)O)C(C)C)CC1,-,-,1a,<0.5 µM
CC(C)N=C1SC(c2ccc(NC(=O)[C@@H](C)NC(=O)[C@H](O)c3ccccc3)cc2)C(=O)N1Cc1ccccn1,-,Huh7,-,<0.1 µM
O=C(O)/C=C/c1ccc(NC(=O)C2(NC(=O)c3ccc4c(C5CCCCC5)c5n(c4c3)CCCc3occc3-5)CCCC2)cc1,-,Huh7,-,0.01–1 µM
O=c1c(-c2noc(Cc3ccccc3)n2)cn(Cc2ccc(C(F)(F)F)cc2)c2cc(NCCN3CCOCC3)c(F)cc12,-,-,1b,<10 µM
CC1CCC(C(=O)N(c2cc(-c3ccc(NC(=O)c4ccnn4C)cc3)sc2C(=O)O)C(C)C)CC1,-,-,1a,>0.5 µM
CC(C)(C)N=C1SC(c2ccc(NC(=O)[C@H]3CCC(=O)N3C(=O)OCc3ccccc3)cc2)C(=O)N1Cc1ccccn1,-,Huh7,-,0.1–1 µM
c1ccc(-n2ncc3c(NCCc4c[nH]c5ccccc45)ncnc32)cc1,-,HUH 9B,-,1–10 µM
CCN(C(=O)C1CCC(C)CC1)c1cc(-c2ccc(NC(=O)c3ccn[nH]3)cc2)sc1C(=O)O,-,-,1a,<0.5 µM
Cc1ccc(-n2ncc3c(Nc4cccc(F)c4)ncnc32)c(C)c1,-,HUH 9B,-,1–10 µM
O=C(O)/C=C/c1ccc(NC(=O)C2(NC(=O)c3ccc4c(C5CCCCC5)c5n(c4c3)CCNc3ccccc3-5)CCCC2)cc1,-,Huh7,-,0.01–1 µM
O=C(O)Cc1ccc2c(c1)c(=O)c(-c1noc(Cc3ccccc3)n1)cn2Cc1ccc(C(F)(F)F)cc1F,-,-,1b,<0.5 µM
COCCN(C(=O)C1CCC(C)CC1)c1cc(-c2ccc(NC(=O)c3cn(C)cn3)cc2)sc1C(=O)O,-,-,1b,<0.5 µM
C[C@@H](NC(=O)OCc1ccccc1)C(=O)Nc1ccc(C2SC(=Nc3cccc(F)c3)N(CC3CCCO3)C2=O)cc1,-,Huh7,-,0.1–1 µM
CC(=O)Nc1ccc(Nc2ncnc3c2cnn3-c2ccc(C)cc2C)cc1,-,HUH 9B,-,1–10 µM
CN(CCS(C)(=O)=O)c1nc(NCc2ccc(F)cc2)nc2ccc(-c3ccc(C(N)=O)cc3)nc12,-,-,-,<0.1 µM
O=C(O)c1ccc2c(C3CCCCC3)c3n(c2c1)C[C@@H](O)Cc1ncccc1-3,-,Huh7,-,1–10 µM

7 of the rows above, restated:

smiles,conditions,cell line,strain or isolate,value
N#Cc1ccc2c(C3CCCCC3)c3n(c2c1)CCCc1ncccc1-3,-,Huh7,-,0.01–1 µM
CCOc1nc(NCc2ccc(S(N)(=O)=O)cc2)nc2ccc(-c3cccc(N(CCO)S(C)(=O)=O)c3)nc12,-,-,-,0.1–0.25 µM
O=C(O)Cc1ccc2c(c1)c(=O)c(-c1noc(Cc3ccccc3)n1)cn2Cc1ccc(C(F)(F)F)cc1F,-,-,1b,<0.5 µM
CN1CCN(c2cc3c(cc2F)c(=O)c(-c2noc(C(CCCC#N)c4ccccc4)n2)cn3Cc2ccc(C(F)(F)F)cc2F)CC1,-,-,1b,<2 µM
O=C(Nc1ccc(C2SC(=Nc3cccnc3)N(Cc3cccc(F)c3)C2=O)cc1)[C@@H]1CCCN1C(=O)Cc1ccccc1,-,Huh7,-,<0.1 µM
CCn1cc(C(=O)Nc2ccc(-c3cc(N(C(=O)C4CCC(C)CC4)C(C)C)c(C(=O)O)s3)cc2)cn1,-,-,1a,>0.5 µM
CNC(=O)C1Cc2ccccc2-c2c(C3CCCCC3)c3ccc(C(=O)O)cc3n2C1,-,Huh7,-,0.01–1 µM